# What was measured:
# LacβPro2AA = assay: purified protein, by the assay type; details: other: apparent, 37° C., Tris-HCl pH 7.5, other substrate fixed at 1 mM
# Galβ1-3GlcNAcβPro2AA = assay: purified protein, by the assay type; details: other: apparent, 37° C., Tris-HCl pH 7.5, other substrate fixed at 1 mM
substance,measurement,setting,value
PmST3Δ35-His6 (Pasteurella multocida subsp. multocida str. Pm70),Km,LacβPro2AA,4.9 ± 0.6 mM
same,Vmax,LacβPro2AA,270 µM/min
same,kcat,LacβPro2AA,0.75 s⁻¹
same,kcat/Km,LacβPro2AA,153 M⁻¹ s⁻¹
same,Km,Galβ1-3GlcNAcβPro2AA,14 ± 1 mM
same,Vmax,Galβ1-3GlcNAcβPro2AA,340 µM/min
same,kcat,Galβ1-3GlcNAcβPro2AA,0.25 s⁻¹
same,kcat/Km,Galβ1-3GlcNAcβPro2AA,16.7 M⁻¹ s⁻¹
